Measured values from several laboratories, pooled; numbers as filed in NIAID ChemDB.

Shared fields: growth or infection tests; agent: HIV-1; cell line: C8166; endpoint: EC50

ECn is the concentration giving n% inhibition of infection, replication or growth. Blank or dashed fields: not listed here. Rows are shuffled and stem from different studies. Two numbers with a dash give a range or band.

{"compound": "CCCC(=O)O[C@@]12[C@H](OC(=O)/C=C/c3ccccc3)[C@@H](C)[C@@]3(O)[C@@H](C=C(COC(=O)/C=C/c4ccccc4)C[C@]4(O)C(=O)C(C)=C[C@@H]34)[C@@H]1C2(C)C", "strain or isolate": "IIIB", "method": "p24 / ELISA", "value": "0.4696 µM"}
{"compound": "CCN1c2ncc(CCOc3ccc(CC(=O)O)c4ccccc34)cc2C(=O)N(C)c2cccnc21", "mutations": "RT-K103N Y181C", "method": "p24", "value": "<0.1 µM"}
{"compound": "CCCCCCCCC(=O)O[C@@]12[C@H](OC(=O)/C=C/c3ccc(OC)cc3)[C@@H](C)[C@@]3(O)[C@@H](C=C(CO)C[C@]4(O)C(=O)C(C)=C[C@@H]34)[C@@H]1C2(C)C", "strain or isolate": "IIIB", "method": "p24 / ELISA", "value": "0.0045 µM"}
{"compound": "CCCC(C(=O)O)c1c(C)nc2ccc(Cl)cc2c1-c1cc2ccccc2o1", "method": "luciferase / reporter gene", "value": "<20 µM"}
{"compound": "CCN1c2ncc(CCOc3ccc(CC(C)C(=O)O)c4ccccc34)cc2C(=O)N(C)c2ccc(Cl)nc21", "strain or isolate": "WT", "method": "p24", "value": "<0.1 µM"}
{"compound": "Cc1cc(C)cc(S(=O)(=O)c2c(C(=O)/C=C/C(N)=O)[nH]c3ccc(Cl)cc23)c1", "strain or isolate": "IIIB", "mutations": "RT-K103N Y181C", "method": "p24", "value": ">100 µM"}
{"compound": "O=c1cc(-c2cccc3c2Sc2ccccc2S3)oc(N2CCOCC2)c1", "strain or isolate": "RT-K65R M184V", "method": "cytopathic effect / XTT", "value": "4.9 µM"}
{"compound": "CCN1c2ncc(CCOc3ccc(NS(=O)(=O)C(F)(F)F)c4ccccc34)cc2C(=O)N(C)c2ccc(F)nc21", "mutations": "RT-V106A", "method": "p24", "value": "0.1–1 µM"}
{"compound": "Cc1nc2ccc(Br)cc2c(-c2ccc(Cl)cc2)c1C(OCC1CC1)C(=O)O", "method": "luciferase / reporter gene", "value": "<20 µM"}
{"compound": "CCN1c2ncc(CCOc3ccc(-c4ccccn4)cc3C)cc2C(=O)N(C)c2cccnc21", "strain or isolate": "IIIB", "method": "p24", "value": "<0.01 µM"}
{"compound": "C=C(C)[C@]1(O)C[C@@H](C)[C@@]2(O)[C@H]([C@H]1OC(=O)/C=C/C=C/CCCCC)[C@@H]1O[C@]1(CO)[C@@H](O)[C@]1(O)C(=O)C(C)=C[C@H]12", "strain or isolate": "A17", "method": "p24 / ELISA / antigen", "value": "0.02515 µM"}
{"compound": "CCN1c2ncc(CCOc3ccc(-c4ccc(CC(=O)O)cc4O)cc3C)cc2C(=O)N(C)c2cccnc21", "mutations": "RT-K103N Y181C", "method": "p24", "value": ">0.05 µM"}
{"compound": "CCN1c2ncc(CCOc3ccc(C(=O)O)c4ccccc34)cc2C(=O)N(C)c2ccc(F)nc21", "strain or isolate": "WT", "method": "p24", "value": "<0.1 µM"}
{"compound": "CCN1c2ncc(CCOc3ccc(-c4cnc[nH]4)cc3C)cc2C(=O)N(C)c2cccnc21", "strain or isolate": "IIIB", "method": "p24", "value": "<0.01 µM"}
{"compound": "CCc1ccc(-c2c(C(OC3CCC3)C(=O)O)c(C)nc3ccc(Cl)cc23)cc1", "method": "luciferase / reporter gene", "value": "<20 µM"}
{"compound": "CCN1C(=O)NC(=O)C(C(C)C)C1CC1CC(C)CC(C#N)C1=O", "strain or isolate": "KM018", "method": "p24 / ELISA", "value": "0.00667 µM"}
{"compound": "CCN1c2ncc(CCOc3ccc(NC(=O)CCC(=O)O)c4ccccc34)cc2C(=O)N(C)c2cccnc21", "strain or isolate": "WT", "method": "p24", "value": "<0.1 µM"}
{"compound": "CCN1c2ncc(CCOc3ccc(NC(=O)/C=C/C(=O)O)cc3C)cc2C(=O)N(C)c2cccnc21", "strain or isolate": "IIIB", "method": "p24", "value": ">0.05 µM"}
{"compound": "CCN1c2nc(C(F)(F)F)ccc2NC(=O)c2cc(CCOc3cc[n+]([O-])c4ccccc34)cnc21", "mutations": "RT-Y188L", "method": "p24", "value": "0.065 µM"}
{"compound": "CC1=C[C@H]2[C@@]3(O)[C@H](C)[C@@H](OC(=O)CCc4ccccc4)[C@]4(OC(=O)CCc5ccccc5)[C@H]([C@@H]3C=C(CO)C[C@]2(O)C1=O)C4(C)C", "strain or isolate": "IIIB", "method": "p24 / ELISA", "value": "0.0264 µM"}
{"compound": "CCN1c2ncc(CCOc3ccc4cc(CC(=O)O)ccc4c3C)cc2C(=O)N(C)c2cccnc21", "mutations": "RT-K103N Y181C", "method": "p24", "value": "<0.1 µM"}
{"compound": "CCc1ccc(-c2c(C(OC3(C)CC3)C(=O)O)c(C)nc3ccc(Cl)cc23)cc1", "method": "luciferase / reporter gene", "value": "<20 µM"}
{"compound": "CC(=O)O[C@@]12[C@H](OC(=O)CCCCCCBr)[C@@H](C)[C@@]3(O)[C@@H](C=C(CO)C[C@]4(O)C(=O)C(C)=C[C@@H]34)[C@@H]1C2(C)C", "strain or isolate": "IIIB", "method": "p24 / ELISA", "value": "0.0474 µM"}
{"compound": "CCN1c2ncc(CCOc3ccc(-c4ccc(C(=O)O)cc4)cc3F)cc2C(=O)N(C)c2cccnc21", "mutations": "RT-K103N Y181C", "method": "p24", "value": ">0.05 µM"}
{"compound": "CCCC(C(=O)O)c1c(C)nc2ccc(Cl)cc2c1-c1ccc(C)cc1C", "method": "luciferase / reporter gene", "value": "<20 µM"}
{"compound": "CCN1c2ncc(CCOc3ccc(CCC(=O)O)c4ccccc34)cc2C(=O)N(C)c2ccc(Cl)nc21", "strain or isolate": "WT", "method": "p24", "value": "<0.1 µM"}
{"compound": "Cc1nc2ccc(Br)cc2c(-c2ccc(Cl)cc2)c1C(OCC#N)C(=O)O", "method": "luciferase / reporter gene", "value": "<20 µM"}
{"compound": "C/C=C/C(=O)OCC1=C[C@H]2[C@@H]3C(C)(C)[C@]3(OC(=O)/C=C/C)[C@H](O)[C@@H](C)[C@]2(O)[C@@H]2C=C(C)C(=O)[C@@]2(O)C1", "strain or isolate": "IIIB", "method": "p24 / ELISA", "value": "64.79 µM"}
{"compound": "COC(=O)c1cc2c(c(OC)c1-c1ccc(N(C)C)cc1)OCO2", "strain or isolate": "RF", "method": "p24 / ELISA", "value": "0.18 µg/mL"}
{"compound": "CCCC(C(=O)O)c1c(C)nc2ccc(Cl)cc2c1-c1ccc(C)c(F)c1", "method": "luciferase / reporter gene", "value": "<20 µM"}
{"compound": "CCN1c2ncc(CCOc3ccc4cc(C(=O)NC(C)(C)C(=O)O)ccc4c3)cc2C(=O)N(C)c2cccnc21", "mutations": "RT-K103N Y181C", "method": "p24", "value": "0.1–1 µM"}

The first 4 rows once more:

compound | strain or isolate | mutations | method | value
CCCC(=O)O[C@@]12[C@H](OC(=O)/C=C/c3ccccc3)[C@@H](C)[C@@]3(O)[C@@H](C=C(COC(=O)/C=C/c4ccccc4)C[C@]4(O)C(=O)C(C)=C[C@@H]34)[C@@H]1C2(C)C | IIIB |  | p24 / ELISA | 0.4696 µM
CCN1c2ncc(CCOc3ccc(CC(=O)O)c4ccccc34)cc2C(=O)N(C)c2cccnc21 |  | RT-K103N Y181C | p24 | <0.1 µM
CCCCCCCCC(=O)O[C@@]12[C@H](OC(=O)/C=C/c3ccc(OC)cc3)[C@@H](C)[C@@]3(O)[C@@H](C=C(CO)C[C@]4(O)C(=O)C(C)=C[C@@H]34)[C@@H]1C2(C)C | IIIB |  | p24 / ELISA | 0.0045 µM
CCCC(C(=O)O)c1c(C)nc2ccc(Cl)cc2c1-c1cc2ccccc2o1 |  |  | luciferase / reporter gene | <20 µM